Source: patent US10149852B2, “Use of sodium channel blockers for the treatment of neuropathic pain developing as a consequence of chemotherapy” (priority 2006, dated 2018)

Experiments:
Settings in all cases: mouse, in vivo
[1] = system: paclitaxel-induced thermal hyperalgesia
[2] = system: paclitaxel-induced cold allodynia
[3] = system: paclitaxel-induced mechanical allodynia

Octahydro-12-(Hydroxymethyl)-2-imino-5,9,7,10a-dimethano-10aH-[1,3]dioxocino[6,5-d]pyrimidine-4,7,10,11,12-pentol [TTX]
effect on development of paclitaxel-induced thermal hyperalgesia (latency to hind paw withdrawal, plantar test) [1]: No statistically significant differences | effect on expression of paclitaxel-induced thermal hyperalgesia (paw withdrawal latency) [1]: inhibited paclitaxel-induced thermal hyperalgesia in a dose-dependent manner | effect on paw withdrawal latency in control animals (plantar test) [1]: No statistically significant differences | effect on development of paclitaxel-induced cold allodynia (duration and frequency of paw licking/biting) [2]: non-significantly different from that obtained on pre-treatment day | effect on duration and frequency of paw licking/biting in control animals (acetone test) [2]: No statistically significant differences | effect on development of paclitaxel-induced mechanical allodynia (threshold force, Von Frey test) [3]: inhibited the development | effect on expression of paclitaxel-induced mechanical allodynia (threshold force) [3]: inhibited mechanical allodynia | effect on threshold force for hind paw withdrawal in control animals (Von Frey test) [3]: No statistically significant differences
